Read-outs that look alike come from different tables or passages of the source.
Assays:
HIV-1GFP = type: cell-based, human immunodeficiency virus (HIV)-1
Protocol: (§1) The plasmid used to obtain the DENVGFP vector (pFK-DVs-G2A) was provided by Ralf Bartenschlager (Heidelberg University, Heidelberg, Germany) and Laurent Chatel-Chaix (Institut National de la Recherche Scientifique, Laval, QC, Canada). The 2 plasmids used to obtain the HIV-1GFP vector were PMD2.G and pNL4-3-GFPΔEnvΔNef. For DENVGFP, viral titer was measured using a plaque assay in Vero cells, as described in [53]. For HIV-1GFP, the viral titer was obtained by measuring the infectivity of serially diluted vectors in CRFK cells, as described in [54].
(§2) Briefly, 7.5 × 10^3 Huh7 cells/well or 2 × 10^4 THP-1 cells/well were plated in 96-well plates at 37 °C for 24 h. […] Each dilution was added to the cell plates to obtain final concentrations of 1.56 µM to 200 µM for alkaloids and matched concentrations of DMSO, and 0.05 µM to 6.4 µM for lycorine or 0.078 µM to 10 µM for raltegravir. Lycorine and raltegravir were used as DENV and HIV-1 inhibitor controls, respectively. DENVGFP and HIV-1GFP were then added at multiplicities of infection (MOIs) of 0.025 and 0.1, respectively. Plates were placed in an incubator at 37 °C and 5% CO2 for 72 h. Afterward, the cells were fixed in 3.7% formaldehyde and the percentage of infection was measured using flow cytometry with an FC500 MPL cytometer (Beckman Coulter, Inc., Brea, CA, USA). Data analysis was performed using Flowjo software (BD, FlowJo LLC, Ashland, OR, USA). All experiments were performed at least twice. EC50 values were calculated using QuestGraph IC50 calculator software (MLA Quest Graph™ IC50 Calculator. AAT Bioquest, Inc. https://www.aatbio.com/tools/ic50-calculator (accessed on 1 July 2022)).

DENVGFP = experiment: Antiviral assay, propagative DENVGFP vector in Huh7 cells, flow cytometry; type: cell-based, dengue virus (serotype 2); conditions: SI = CC50/EC50 (Huh7)
Protocol: as §1, §2

| Structure (SMILES) | SI HIV-1 (HIV-1GFP; SI = CC50/EC50 (THP-1)) | SI DENV (DENVGFP) | SI HIV-1 (HIV-1GFP; ratio CC50 / EC50) |
| --- | --- | --- | --- |
| Oc1ccc(CC/N=C/c2ccc(O)c(O)c2)cc1 [Norcraugsodine] | 0.5 | 3.2 | – |
| COc1ccc(/C=N/CCc2ccc(O)cc2)cc1O [4′-O-methylnorcraugsodine] | <1.0 | <1.0 | – |
| O=Cc1ccc(O)c(O)c1 [3,4-DHBA, 3,4-dihydroxybenzaldehyde] | 0.6 | – | – |
| COc1ccc(CNCCc2ccc(O)cc2)cc1OC [3′,4′-O-dimethylnorbelladine] | – | – | >2.0 |
| COc1cc(/C=N/CCc2ccc(O)cc2)ccc1O [3′-O-methylnorcraugsodine] | – | >1.1 | – |
| Oc1ccc(CCNCc2ccc(O)c(O)c2)cc1 [Norbelladine] | – | 1.4 | – |
| O[C@H]1[C@H]2c3cc4c(cc3CN3CCC(=C[C@@H]1O)[C@H]23)OCO4 [Lycorine, reference compound] | – | 193.3 | – |
| COc1ccc(CNCCc2ccc(O)cc2)cc1O [4′-O-methylnorbelladine] | – | – | >1.8 |
| COc1ccc(/C=N/CCc2ccc(O)cc2)cc1OC [3′,4′-O-dimethylnorcraugsodine] | <1.0 | <1.0 | – |
| NCCc1ccc(O)cc1 [Tyramine] | <1.0 | <1.0 | – |
| COc1cc(CNCCc2ccc(O)cc2)ccc1O [3′-O-methylnorbelladine] | – | – | 0.73 |
| Cc1nnc(C(=O)NC(C)(C)c2nc(C(=O)NCc3ccc(F)cc3)c(O)c(=O)n2C)o1 [Raltegravir, reference compound] | >102 | – | – |
